These results are taken from patent publication US20250115620A1, “BRIDGED TRICYCLIC CARBAMOYLPYRIDONE COMPOUNDS AND USES THEREOF” (Gilead Sciences, Inc., priority 2022, published 2025).

SMILES strings stand for the structures.

For this data set, the system named is pLAI reporter virus. The data set is classed as cell-based, HIV. Conditions: EC50 (50% HS)/EC50 (CCM).
`C[C@H]1CC[C@]2(CC(CO)=NO2)[C@H]2CN1C(=O)c1c(O)c(=O)c(C(=O)NCc3ccc(F)cc3F)cn12` [Example 16, (3′S,5S,7′R)—N-(2,4-difluorobenzyl)-12′-hydroxy-3-(hydroxymethyl)-3′-methyl-1′,11′-dioxo-1′,4′,5′,11′-tetrahydro-3′H,4H,7′H-spiro[isoxazole-5,6′-[2,7]methanopyrido[1,2-a][1,4]diazonine]-10′-carboxamide]: the “RLUC 50% HS Shift” value turned out to be 19×.

As for `C[C@H]1CC[C@]2(CC(CF)=NO2)[C@H]2CN1C(=O)c1c(O)c(=O)c(C(=O)NCc3ccc(F)cc3F)cn12` [Example 17, (3′S,5S,7′R)—N-(2,4-difluorobenzyl)-3-(fluoromethyl)-12′-hydroxy-3′-methyl-1′,11′-dioxo-1′,4′,5′,11′-tetrahydro-3′H,4H,7′H-spiro[isoxazole-5,6′-[2,7]methanopyrido[1,2-a][1,4]diazonine]-10′-carboxamide], the “RLUC 50% HS Shift” value was 1128×. The value for `C[C@H]1CC[C@@]2(CC(CF)=NO2)[C@H]2CN1C(=O)c1c(O)c(=O)c(C(=O)NCc3ccc(F)cc3F)cn12` [Example 18, (3′S,5R,7′R)—N-(2,4-difluorobenzyl)-3-(fluoromethyl)-12′-hydroxy-3′-methyl-1′,11′-dioxo-1′,4′,5′,11′-tetrahydro-3′H,4H,7′H-spiro[isoxazole-5,6′-[2,7]methanopyrido[1,2-a][1,4]diazonine]-10′-carboxamide] was 2×; that for `C[C@H]1CC[C@]2(CC(CF)=NO2)[C@H]2CN1C(=O)c1c(O)c(=O)c(C(=O)NCc3c(F)cc(F)cc3F)cn12` [Example 19, (3′S,5S,7′R)-3-(fluoromethyl)-12′-hydroxy-3′-methyl-1′,11′-dioxo-N-(2,4,6-trifluorobenzyl)-1′,4′,5′,11′-tetrahydro-3′H,4H,7′H-spiro[isoxazole-5,6′-[2,7]methanopyrido[1,2-a][1,4]diazonine]-10′-carboxamide] was 813×. The value for `C[C@H]1CC[C@]2(CC(C(F)F)=NO2)[C@H]2CN1C(=O)c1c(O)c(=O)c(C(=O)NCc3c(F)cc(F)cc3F)cn12` [Example 20, (3′S,5S,7′R)-3-(difluoromethyl)-12′-hydroxy-3′-methyl-1′,11′-dioxo-N-(2,4,6-trifluorobenzyl)-1′,4′,5′,11′-tetrahydro-3′H,4H,7′H-spiro[isoxazole-5,6′-[2,7]methanopyrido[1,2-a][1,4]diazonine]-10′-carboxamide] was 561×; that for `C[C@H]1CC[C@]2(CC(C(F)F)=NO2)[C@H]2CN1C(=O)c1c(O)c(=O)c(C(=O)NCc3ccc(F)cc3F)cn12` [Example 21, (3′S,5S,7′R)—N-(2,4-difluorobenzyl)-3-(difluoromethyl)-12′-hydroxy-3′-methyl-1′,11′-dioxo-1′,4′,5′,11′-tetrahydro-3′H,4H,7′H-spiro[isoxazole-5,6′-[2,7]methanopyrido[1,2-a][1,4]diazonine]-10′-carboxamide] was 242×; that for `CC1=NO[C@]2(CC[C@H](C)N3C[C@H]2n2cc(C(=O)NCc4ccc(F)cc4F)c(=O)c(O)c2C3=O)C1C` (stereo partly drawn) [Example 23, (3′S,5R,7′R)—N-(2,4-difluorobenzyl)-12′-hydroxy-3,3′,4-trimethyl-1′,11′-dioxo-1′,4′,5′,11′-tetrahydro-3′H,4H,7′H-spiro[isoxazole-5,6′-[2,7]methanopyrido[1,2-a][1,4]diazonine]-10′-carboxamide] was 2×. The value for `CC1=NO[C@]2(CC[C@H](C)N3C[C@H]2n2cc(C(=O)NCc4ccc(F)cc4F)c(=O)c(O)c2C3=O)C1O` (stereo partly drawn) [Example 24, (3′S,5S,7′R)—N-(2,4-difluorobenzyl)-4,12′-dihydroxy-3,3′-dimethyl-1′,11′-dioxo-1′,4′,5′,11′-tetrahydro-3′H,4H,7′H-spiro[isoxazole-5,6′-[2,7]methanopyrido[1,2-a][1,4]diazonine]-10′-carboxamide] was 2×; that for `CC1=NO[C@]2(CC[C@H](C)N3C[C@H]2n2cc(C(=O)NCc4ccc(F)cc4F)c(=O)c(O)c2C3=O)C1=O` [Example 25, (3′S,5S,7′R)—N-(2,4-difluorobenzyl)-12′-hydroxy-3,3′-dimethyl-1′,4,11′-trioxo-1′,4′,5′,11′-tetrahydro-3′H,4H,7′H-spiro[isoxazole-5,6′-[2,7]methanopyrido[1,2-a][1,4]diazonine]-10′-carboxamide] was 2×; that for `CC1=NO[C@@]2(CC[C@H](C)N3C[C@H]2n2cc(C(=O)NCc4ccc(F)cc4F)c(=O)c(O)c2C3=O)[C@H]1C` [Example 26, (3′S,4S,5S,7′R)—N-(2,4-difluorobenzyl)-12′-hydroxy-3,3′,4-trimethyl-1′,11′-dioxo-1′,4′,5′,11′-tetrahydro-3′H,4H,7′H-spiro[isoxazole-5,6′-[2,7]methanopyrido[1,2-a][1,4]diazonine]-10′-carboxamide] was 32×. Regarding `CC1=NO[C@@]2(CC[C@H](C)N3C[C@H]2n2cc(C(=O)NCc4ccc(F)cc4F)c(=O)c(O)c2C3=O)[C@H]1O` [Example 28, (3′S,4S,5R,7′R)—N-(2,4-difluorobenzyl)-4,12′-dihydroxy-3,3′-dimethyl-1′,11′-dioxo-1′,4′,5′,11′-tetrahydro-3′H,4H,7′H-spiro[isoxazole-5,6′-[2,7]methanopyrido[1,2-a][1,4]diazonine]-10′-carboxamide], the “RLUC 50% HS Shift” value amounted to 129×. `CC1=NO[C@@]2(CC[C@H](C)N3C[C@H]2n2cc(C(=O)NCc4ccc(F)cc4F)c(=O)c(O)c2C3=O)C1=O` [Example 29, (3′S,5R,7′R)—N-(2,4-difluorobenzyl)-12′-hydroxy-3,3′-dimethyl-1′,4,11′-trioxo-1′,4′,5′,11′-tetrahydro-3′H,4H,7′H-spiro[isoxazole-5,6′-[2,7]methanopyrido[1,2-a][1,4]diazonine]-10′-carboxamide]: the “RLUC 50% HS Shift” value stood at 210×. With `CC1=NO[C@@]2(CC[C@H](C)N3C[C@H]2n2cc(C(=O)NCc4ccc(F)cc4F)c(=O)c(O)c2C3=O)[C@@H]1O` [Example 30, (3′S,4R,5R,7′R)—N-(2,4-difluorobenzyl)-4,12′-dihydroxy-3,3′-dimethyl-1′,11′-dioxo-1′,4′,5′,11′-tetrahydro-3′H,4H,7′H-spiro[isoxazole-5,6′-[2,7]methanopyrido[1,2-a][1,4]diazonine]-10′-carboxamide], the “RLUC 50% HS Shift” value amounted to 159×. `CC1=NO[C@@]2(CC[C@H](C)N3C[C@H]2n2cc(C(=O)NCc4c(F)cc(F)cc4F)c(=O)c(O)c2C3=O)[C@H]1O` [Example 31, (3′S,4S,5R,7′R)-4,12′-dihydroxy-3,3′-dimethyl-1′,11′-dioxo-N-(2,4,6-trifluorobenzyl)-1′,4′,5′,11′-tetrahydro-3′H,4H,7′H-spiro[isoxazole-5,6′-[2,7]methanopyrido[1,2-a][1,4]diazonine]-10′-carboxamide]: the “RLUC 50% HS Shift” value came to 157×. The value for `CC1=NO[C@@]2(CC[C@H](C)N3C[C@H]2n2cc(C(=O)NCc4c(F)cc(F)cc4F)c(=O)c(O)c2C3=O)[C@H]1F` [Example 32, (3′S,4S,5R,7′R)-4-fluoro-12′-hydroxy-3,3′-dimethyl-1′,11′-dioxo-N-(2,4,6-trifluorobenzyl)-1′,4′,5′,11′-tetrahydro-3′H,4H,7′H-spiro[isoxazole-5,6′-[2,7]methanopyrido[1,2-a][1,4]diazonine]-10′-carboxamide] was 652×; that for `CC1=NO[C@@]2(CC[C@H](C)N3C[C@H]2n2cc(C(=O)NCc4c(F)cc(F)cc4F)c(=O)c(O)c2C3=O)[C@@H]1F` [Example 33, (3′S,4R,5R,7′R)-4-fluoro-12′-hydroxy-3,3′-dimethyl-1′,11′-dioxo-N-(2,4,6-trifluorobenzyl)-1′,4′,5′,11′-tetrahydro-3′H,4H,7′H-spiro[isoxazole-5,6′-[2,7]methanopyrido[1,2-a][1,4]diazonine]-10′-carboxamide] was 854×; that for `CC1=NO[C@@]2(CC[C@H](C)N3C[C@H]2n2cc(C(=O)NCc4ccc(F)c(Cl)c4F)c(=O)c(O)c2C3=O)[C@H]1C` [Example 34, (3′S,4S,5S,7′R)—N-(3-chloro-2,4-difluorobenzyl)-12′-hydroxy-3,3′,4-trimethyl-1′,11′-dioxo-1′,4′,5′,11′-tetrahydro-3′H,4H,7′H-spiro[isoxazole-5,6′-[2,7]methanopyrido[1,2-a][1,4]diazonine]-10′-carboxamide] was 384×.

For the compound `CC1=NO[C@@]2(CC[C@H](C)N3C[C@H]2n2cc(C(=O)NCc4ccc(F)c(Cl)c4F)c(=O)c(O)c2C3=O)[C@H]1O` [Example 35, (3′S,4S,5R,7′R)—N-(3-chloro-2,4-difluorobenzyl)-4,12′-dihydroxy-3,3′-dimethyl-1′,11′-dioxo-1′,4′,5′,11′-tetrahydro-3′H,4H,7′H-spiro[isoxazole-5,6′-[2,7]methanopyrido[1,2-a][1,4]diazonine]-10′-carboxamide], the “RLUC 50% HS Shift” value was found to be 340×. As for `COC1=NO[C@@]2(CC[C@H](C)N3C[C@H]2n2cc(C(=O)NCc4c(F)cc(F)cc4F)c(=O)c(O)c2C3=O)C1` [Example 36, (3′S,5S,7′R)-12′-hydroxy-3-methoxy-3′-methyl-1′,11′-dioxo-N-(2,4,6-trifluorobenzyl)-1′,4′,5′,11′-tetrahydro-3′H,4H,7′H-spiro[isoxazole-5,6′-[2,7]methanopyrido[1,2-a][1,4]diazonine]-10′-carboxamide], the figure is 138×. The value for `COC1=NO[C@]2(CC[C@H](C)N3C[C@H]2n2cc(C(=O)NCc4c(F)cc(F)cc4F)c(=O)c(O)c2C3=O)C1` [Example 37, (3′S,5R,7′R)-12′-hydroxy-3-methoxy-3′-methyl-1′,11′-dioxo-N-(2,4,6-trifluorobenzyl)-1′,4′,5′,11′-tetrahydro-3′H,4H,7′H-spiro[isoxazole-5,6′-[2,7]methanopyrido[1,2-a][1,4]diazonine]-10′-carboxamide] was 12×.
